We go through two compounds from patent US20040029254A1, “Method of screening anti-bacterial agents for effectiveness in treating persistant intracellular infections” (University of Washington, priority 2002, published 2004).

This experiment deals with C. psittaci 6BC, GPIC.

Regarding `CC1COc2c(N3CCN(C)CC3)c(F)cc3c(=O)c(C(=O)O)cn1c23` (stereo not shown) [Ofloxacin, ofloxacin], the “MCC1 (shell vial)” value is >8 µg/mL and the “MCC (microtiter)” value worked out at 2.0 µg/mL.

On to `C[C@H]1c2cccc(O)c2C(=O)C2=C(O)[C@]3(O)C(=O)C(C(N)=O)=C(O)[C@@H](N(C)C)[C@@H]3[C@@H](O)[C@@H]21` [Doxycycline, doxycycline], for which the “MCC1 (shell vial)” value was >8 µg/mL and the “MCC (microtiter)” value turned out to be 0.250 µg/mL.
